The text below walks through data of publication PMC7038234, “Screening of Natural Extracts for Inhibitors against Japanese Encephalitis Virus Infection” (Antimicrobial Agents and Chemotherapy, 2020).

Broadly, the inhibition is the drop in the measured response relative to a control, in per cent. One may read the pIC50 as the negative decadic logarithm of the IC50, by convention in mol/L.

pIC50: −log10 of the molar value. Some results are limits rather than exact numbers.

In data set [1] the test system is JEV strain AT31. The data set is described as follows: Immunofluorescence staining assay (IFA), AT31 infection of Vero cells. The following applies: Japanese encephalitis virus, read-out: inhibition rate.
For data set [2], the system named is JEV strain AT31. As to the kind of experiment: Time-of-addition experiment (plaque assay). Format: cell-based, Japanese encephalitis virus. The following applies: for inhibition of JEV posttreatment: postinfection (1 to 24 h); for suppression of JEV in pretreatment: preinfection (−1 to 0 h); for suppression of JEV in virucidal treatment: virus incubated with drug 1 μM, 37°C, 1 h, diluted 100-fold.

Data set [3] concerns JEV strain AT31. The data set is described as follows: microbe, parasite or virus in culture. The following applies: Japanese encephalitis virus, 24 h; for pIC50: Vero.
For data set [4], the system named is JEV strain AT31. The following applies: Vero cells, JEV.
[5] abbreviates: Primary screening of 1034 compounds in the natural extracts library.
The mark [6] stands for this setting: primary screening of 1034 compounds in the natural extracts library, red numbers = obvious cytotoxicity, blue numbers = insoluble in DMSO (colours not visible).

Regarding `C[C@@H]1O[C@@H](O[C@H]2C[C@@H](O)[C@]3(CO)[C@H]4[C@H](O)C[C@]5(C)[C@@H](C6=CC(=O)OC6)CC[C@]5(O)[C@@H]4CC[C@]3(O)C2)[C@H](O)[C@H](O)[C@H]1O` [ouabain], the inhibition at 0.196 µM in the data set on JEV strain AT31 [1] is above 90%. In addition, the “inhibition of JEV during treatment” value in the data set on JEV strain AT31 [2] (10 μM, during infection (0 to 1 h)) is reported as “robust inhibition”. For the same molecule, in the data set with JEV strain AT31 [2] (10 μM), the “inhibition of JEV posttreatment” value is on record as “full inhibitory effects” and the “suppression of JEV in pretreatment” value is recorded as “neither digoxin nor ouabain showed suppression”. The “suppression of JEV in virucidal treatment” value with JEV strain AT31 [2] is reported as “neither digoxin nor ouabain showed suppression”. The inhibition at 50 µM in the data set with JEV strain AT31 [3] (setting [5]) worked out at 99.8%. For the same molecule, the negative logarithm of the IC50 (pIC50) in the data set with JEV strain AT31 [3] is 7.28.
For the molecule `C[C@H]1O[C@@H](O[C@H]2[C@@H](O)C[C@H](O[C@H]3[C@@H](O)C[C@H](O[C@H]4CC[C@@]5(C)[C@H](CC[C@@H]6[C@@H]5C[C@@H](O)[C@]5(C)[C@@H](C7=CC(=O)OC7)CC[C@]65O)C4)O[C@@H]3C)O[C@@H]2C)C[C@H](O)[C@@H]1O` [digoxin], in the data set on JEV strain AT31 [1], the inhibition at 0.392 µM was above 90%. Moreover, in the data set on JEV strain AT31 [2] (10 μM), the “inhibition of JEV posttreatment” value is “full inhibitory effects” and the “suppression of JEV in pretreatment” value is “neither digoxin nor ouabain showed suppression”. In addition, the “suppression of JEV in virucidal treatment” value with JEV strain AT31 [2] is reported as “neither digoxin nor ouabain showed suppression”. Also, in the data set on JEV strain AT31 [3] (setting [6]), the inhibition at 50 µM was found to be 91.6%. Besides, the pIC50 in the data set with JEV strain AT31 [3] is 6.99.
For the molecule `COC1=CC23CCCN2CCc2cc4c(cc2C3C1O)OCO4` (centres unmarked) [cephalotaxlen], in the data set on JEV strain AT31 [3] (setting [6]), the inhibition at 50 µM amounted to 92.2%. The molecule also showed a pIC50 in the data set on JEV strain AT31 [3] of 5.87. Further, the “SI (CC50/IC50)” value in the data set with JEV strain AT31 [4] is given as above 74.91.
As for `COc1cc2c(c(OC)c1OC)-c1c(cc(OC)c(OC)c1OC)C[C@H](C)[C@H](C)C2` [schizandrin A], the inhibition at 50 µM in the data set with JEV strain AT31 [3] (setting [5]) was found to be 98.6%. The same molecule had a negative logarithm of the IC50 (pIC50) in the data set with JEV strain AT31 [3] of 5.18. For the same molecule, the “SI (CC50/IC50)” value in the data set on JEV strain AT31 [4] came to 15.07.
For the molecule `Oc1cc(O)c2c(c1)OC(c1ccc(O)c(O)c1)C(OC1(c3ccc(O)c(O)c3)Oc3cc(O)cc(O)c3C(O)C1O)C2` (centres unmarked) [procyanidin], in the data set on JEV strain AT31 [3] (setting [6]), the inhibition at 50 µM was 99.4%. In the data set on JEV strain AT31 [3], this molecule had a pIC50 of 5.27. Besides, in the data set on JEV strain AT31 [4], the “SI (CC50/IC50)” value is above 18.43.
As to `O[C@H]1[C@H]2c3cc4c(cc3CN3CCC(=C[C@@H]1O)[C@H]23)OCO4` [lycorine], the inhibition at 50 µM in the data set on JEV strain AT31 [3] (setting [6]) was 92.5%. For the same molecule, in the data set with JEV strain AT31 [3], the pIC50 is 6.47. Further, the “SI (CC50/IC50)” value in the data set on JEV strain AT31 [4] is given as above 293.9.
As for `COc1cc2c(c(OC)c1OC)-c1c(cc3c(c1OC)OCO3)CC(C)C(C)C2` (centres unmarked) [schizandrin B], in the data set with JEV strain AT31 [3] (setting [5]), the inhibition at 50 µM was determined as 92.4%. In addition, the pIC50 with JEV strain AT31 [3] is 5.50. In addition, the “SI (CC50/IC50)” value with JEV strain AT31 [4] is listed as above 31.89.
With `C[C@@]1(CO)C[C@@H](O)C[C@@]2(C)[C@@H]3CC[C@](C)([C@@H](O)CO)C=C3CC[C@H]12` [Kirenol], the inhibition at 50 µM in the data set with JEV strain AT31 [3] (setting [5]) is 12.3%.
With `O=C(O)c1cc(O)c(O)c(O)c1` [Gallic acid], the inhibition at 50 µM with JEV strain AT31 [3] (setting [5]) was 98.6%.
Still for that read-out and setting: under `Cc1cc(O)c2c(=O)c3c(O)cc(O)c4c5c(O)cc(O)c6c(=O)c7c(O)cc(C)c8c1c2c(c34)c(c78)c65` [Hypericin] stands 7.46%; under `O=C(/C=C/c1ccc(O)cc1)c1ccc(O)cc1O` [Isoliquiritigenin], 59.1%; under `O=c1cc(-c2ccc(O)cc2)oc2cc(O)c([C@@H]3O[C@H](CO)[C@@H](O)[C@H](O)[C@H]3O)c(O)c12` [Isovitexin], -8.28%.
In the case of `O=C(O)c1cc(O)c2c(c1)[C@H]([C@H]1c3cc(C(=O)O)cc(O)c3C(=O)c3c(O[C@@H]4O[C@H](CO)[C@@H](O)[C@H](O)[C@H]4O)cccc31)c1cccc(O[C@@H]3O[C@H](CO)[C@@H](O)[C@H](O)[C@H]3O)c1C2=O` [SennosideA], the inhibition at 50 µM in the data set with JEV strain AT31 [3] (setting [5]) was -9.78%.
For `O=C(/C=C/c1ccc(O)c(O)c1)O[C@H](Cc1ccc(O)c(O)c1)C(=O)O` [Rosmarinic acid], the inhibition at 50 µM in the data set with JEV strain AT31 [3] (setting [5]) turned out to be 10.7%.
On the same count and under the same terms, the value for `O=C(CCc1ccc(O)cc1)c1c(O)cc(O)cc1O[C@@H]1O[C@H](CO)[C@@H](O)[C@H](O)[C@H]1O` [Phlorizin] was 8.24%; that for `O=c1cc(-c2ccccc2)oc2cc(O)c(O)c(O)c12` [Baicalein] was -44.4%; that for `OCC1=C[C@@H](O)[C@@H]2C=CO[C@@H](O[C@@H]3O[C@H](CO)[C@@H](O)[C@H](O)[C@H]3O)[C@H]12` [Aucubin] was -8.82%.
`Oc1cc2c(cc1O)[C@@H]1c3ccc(O)c(O)c3OC[C@]1(O)C2` [Hematoxylin]: in the data set on JEV strain AT31 [3] (setting [5]), the inhibition at 50 µM is -6.88%.
For the molecule `COc1ccc([C@@H]2CC(=O)c3c(O)cc(O[C@@H]4O[C@H](CO)[C@@H](O)[C@H](O)[C@H]4O[C@@H]4O[C@@H](C)[C@H](O)[C@@H](O)[C@H]4O)cc3O2)cc1` [Poncirin], the inhibition at 50 µM with JEV strain AT31 [3] (setting [5]) was -6.15%.
The same measure, in the same setting: the value for `O=c1c(-c2ccc(O)cc2)coc2cc(O[C@@H]3O[C@H](CO)[C@@H](O)[C@H](O)[C@H]3O)cc(O)c12` [Genistin] was 5.29%; that for `C=C1C[C@@]23CC[C@H]4[C@@](C)(CCC[C@@]4(C)C(=O)O)[C@@H]2CC[C@]1(O)C3` [Steviol] was 8.84%.
On the same count and under the same terms, under `COc1ccc(C(C)=O)c(O[C@@H]2O[C@H](CO[C@@H]3OC[C@H](O)[C@H](O)[C@H]3O)[C@@H](O)[C@H](O)[C@H]2O)c1` [Paeonolide] stands 28.3%.
With `COc1ccc2c(c1OC)CN1CCc3cc4c(cc3C1C2)OCO4` (centres unmarked) [Tetrahydroberberine], the inhibition at 50 µM in the data set on JEV strain AT31 [3] (setting [5]) stood at 28%.
